ChEMBL document CHEMBL4219160, “The discovery of novel diarylpyri(mi)dine derivatives with high level activity against a wide variety of HIV-1 strains as well as against HIV-2” (Bioorg Med Chem, 2018)
pIC50: −log10 of the molar value.

Target: Human immunodeficiency virus type 1 reverse transcriptase (Human immunodeficiency virus 1, UniProt Q72547, K103N/Y181C)
Experiment: Inhibition of HIV1 reverse transcriptase K103N/Y181C double mutant using poly (A)/oligo (dT)15 as template/primer assessed as decrease in biotin-dUTP incorporation after 1 hr by ELISA

Work on `Cc1cc(C#N)cc(C)c1Oc1nc(Nc2ccc(C#N)cc2)nc(N)c1Br` [ETRAVIRINE] yielded a pIC50 of 7.70.
